According to article PMC11666439 (Frontiers in Immunology, 2024):

Target: SARS-CoV-2 N-terminal region ([…]) (SARS-CoV-2)
Assay: ELISA
Conditions: both partners purified

B1: recombinant mannose-binding lectin (rMBL) (natural protein)
chain: ETVTCEDAQKTCPAVIACSSPGINGFPGKDGRDGTKGEKGEPGQGLRGLQGPPGKLGPPGNPGPSGSPGPKGQKGDPGKSPDGDSSLAASERKALQTEMARIKKWLTFSLGKQVGNKFFLTNGEIMTFEKVKALCVKFQASVATPRNAAENGAIQNLIKEEAFLGITDEKTEGQFVDLTGNRLTYTNWNEGEPNNAGSDEDCVLLLKNGQWNDVPCSTSHLAVCEFPI
- binding result: binds
